Reference: the supplement of paper PMC9931576
Human monoclonal antibodies against the spike receptor-binding domain (heavy:light variable regions). IC50 against pseudoviruses bearing the spike of naturally observed variants; lower = stronger; >10 µg/ml means not reached at the top dose. No active / inactive call. The stated detection limit is 0.0005 µg/ml; values near or below 0.001 µg/ml lie at the floor of the assay.

Key:
Experiment in all cases: pseudovirus neutralization IC50; higher = weaker neutralization
[1] = target: SARS-CoV-2 Omicron BA.1 spike pseudovirus
Protocol: (§1)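 Single-round VSV luciferase pseudovirus mixed with antibody dilutions for 1 h and put on Huh-7 cells for about a day; IC50 from the dose curve.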

[2] = target: SARS-CoV-2 Omicron BA.2 spike pseudovirus
Protocol: as §1

[3] = target: SARS-CoV-2 Omicron BA.2.75 spike pseudovirus
Protocol: as §1

[4] = target: SARS-CoV-2 Omicron BA.5 spike pseudovirus
Protocol: as §1

[5] = target: SARS-CoV-2 Omicron BQ.1.1 spike pseudovirus
Protocol: as §1

[6] = target: SARS-CoV-2 Omicron XBB spike pseudovirus
Protocol: as §1

[7] = target: SARS-CoV-2 early D614G spike pseudovirus
Protocol: as §1

Row | Binder | pseudovirus neutralization IC50 [1] [µg/mL] | pseudovirus neutralization IC50 [2] [µg/mL] | pseudovirus neutralization IC50 [3] [µg/mL] | pseudovirus neutralization IC50 [4] [µg/mL] | pseudovirus neutralization IC50 [5] [µg/mL] | pseudovirus neutralization IC50 [6] [µg/mL] | pseudovirus neutralization IC50 [7] [µg/mL]
1 | BD55-6486 (protein) chain 1: QVQLVQSGAEAKKPGSSVKVSCKASRGTFSTYTFTWVRQAPGQGLEWMGRILPIVGVTDLAQKFQGRVTITADKSTNTAYMELSSLRSEDTAVYFCARENPFPTRLYSGYDFLDLGAFDIWGQGTVVTVSS chain 2: EIVLTQSPGTLSLSPGERATLSCRASQSVGSSLLAWYQQRPGQAPRLLIYGASSRATGIPDRFSGSGSGTDFTLTISRLEPEDFAVYYCHQYGGSPYTFGQGTKLEMK | 0.735 | > 10 | > 10 | > 10 | > 10 | > 10 | 0.0109
2 | BD55-6492 (protein) chain 1: QVQLVQSGADVKKPGASVRVSCKASGYTFIDYYIHWVRQAPGEGLEWIGWINPISGGTNFAQKFQGRVTMTRDTSTSTAYMDLTRLRSDDTAVYYCARGWDTRSTFYEHWFDPWGQGTLVTVSS chain 2: DIVMTQSPASLAVSLGERATINCKSSQSVLYSSTNKNYLAWYQQKPGQPPKLLIYWASTRESGVPDRFSGSGSGTDFTLTISRLQAEDVAIYYCQQYYSSPLTFGGGTNVEIK | > 10 | > 10 | > 10 | > 10 | > 10 | > 10 | 4.23
3 | BD55-6507 (protein) chain 1: QVQLVQSGAEVKKPGASVKVSCKAFGYTFNSNYIYWVRQAPGQGLEWMGVIDPSAGATSYAQKFQGRVTMTRDTSTNTVYMELSSLRSEDTAVYYCARDLGDDVSRGYSGYDFLDLYAMDVWGQGTTVTVS chain 2: DIVMTQSPDSLAVSLGERATINCKSSQSILYTSNNKNYLAWYQQKPGQPPKLLIYWASTRESGVPDRFSGSGSGTDFTLTISSLQAEDVAVFYCQQHYSPPPTFGQGTRLEIK | 0.0545 | > 10 | > 10 | > 10 | > 10 | > 10 | 0.0338
4 | BD55-1257 (protein) chain 1: EVQLVESGGGLVQPGGSLRLSCSASGFIFSTYAMQWVRQAPGKGLEYVSGISSDGGITDYGDSVKDRFTISRDNSKNRVYLQMTSLRGEDTAVYYCVKDLGDITTVTTFDYWGQGTLVTVSS chain 2: DIQMTQSPSSLSTSVGDRVTITCRASQSISKYLNWYQQKPGKAPKLLIYSASTLHSGVPSRFSGSGSGTDFTLTITGLQPEDFATYYCQQSYTAPLTFGGGTKVELK | > 10 | > 10 | > 10 | > 10 | > 10 | > 10 | > 10
5 | BD55-6518 (protein) chain 1: QVQLVESGGGVVQPGRSLRLSCAASGFIFSNYGMHWVRQAPGKGLEWVALIWFDGTNQYFGDSVKGRFTISRDNSKNTLYLQMNSLRTEDTAVYYCARDSQCRGGNCYFDYNWFDAWGQGTLVTVSS chain 2: VLTQSPATLSLSPGERATLSCRASQSISFHLAWYQQKPGQAPRLLIYDATKRATDIPARFSGSGSGTDFSLTISSLEPEDFAVYYCQQRYTWPPAYTFGQGTKLEIK | > 10 | > 10 | > 10 | > 10 | > 10 | > 10 | 4.36
6 | BD55-6520 (protein) chain 1: QIILTESGPTLVKPTQTLTLTCTFSGFSLTTTEVGVGWIRQPPGKPLEWLALIYWDDAKRYSPSLKNRLTITKDTSKNQVVLTMTNMDPVDTGTYYCAHWYYDISTGELFYMDVWGKGTTVTVSS chain 2: DIVLTQTPLSSSVTLGQPASISCRSSQSLAHSDGNTYLSWLQQKPGQPPRLLIYEISNRFSGVPDRFSGSGSGTDFTLKISRVEIEDVGVYYCMQTTQFPQEMYTFGQGTKLEIK | > 10 | > 10 | > 10 | > 10 | > 10 | > 10 | 0.0278
7 | BD55-6523 (protein) chain 1: QVQLVQSGAEVKKPGASVKVSCKASGHTFSNYDINWVRQATGQGPEWMGWMNPKSGDTGYAHKFQGRVSMTRNTSISTAYMELSSLRSEDTAVYYCACGVETASLYYYYYAMDVWGQGTTVTVSS chain 2: IQMTQSPSFLSASVGDRVTITCRAGQNINTNLNWYQQKPGKAPNLLIYEASSLHSGVPSRFSGSGSGTDFSLTINSLQPEDFATYFCQQSYSTPSTFGQGTKLEIK | > 10 | > 10 | > 10 | > 10 | > 10 | > 10 | > 10
8 | BD55-6531 (protein) chain 1: QVQLVQSGAEVKKPGSSVKVSCTASGDTFSSYSITWVRLAPGQGLEWMGRIIPKLGITNYAQKFQGRVTIIADESTNTAYMELSSLRSEDTALYYCARDPRPLIPADRNHGMDVWGQGTTVTVSS chain 2: DTVMTQSPLSLPVTPGEPASISCRSSQSLLQSNGYKYLDWYLQKSGQSPQLLIYLGSARASGVPDRFSGSGSGTDFTLNISRVEAEDVGVYYCMQALQIPFTFGQGTKLEIK | 0.0815 |  |  |  | 1.54 | > 10 | 
9 | BD55-6534 (protein) chain 1: EVQLVQSGAEVKKPGESLKISCKGSENSFTIHWIGWVRQLPGKGLEWMGVIFPGDSDTRYSPSFQGQVTISADKSISTAYLQWSSLKASDTAMYYCASRTWGQYSYGMDIWGQGTSVTVS chain 2: DIQMTQSPSSVSASVGDRVTITCRASQGIGNWLAWYQQKPGKAPELLIYAASTLQSGVPSRFSGSGSGTDFTLTISSLQPEDFAAYYCQQANSFPPTFGQGTRLEIK | > 10 | > 10 | > 10 | > 10 | > 10 | > 10 | > 10
10 | BD55-6540 (protein) chain 1: QLQLQQSGPGLVKPSETLSLTCTVSGGSISSDYWTWIRQPPGKGLEWIGYLYYVGITNYNPSLKSRVTISLDTSKNQFSLTLSSVTAADTAVYFCARGRGRYLDDPYYYGMDVWGQGTTVTVSS chain 2: QSVLTQPPSASGTPGQRVAIPCSGSTSNIGSNSVNWYQQVPGTAPKLLIYSNNERPSGVPDRFSGSKSGTSASLAISGLQSEDEADYYCASWDDSLDGRGVFGGGTRLTVL | > 10 | > 10 | > 10 | > 10 | > 10 | > 10 | > 10
11 | BD55-6551 (protein) chain 1: QITLKESGPALVKPTQTLTLTCTFSGFSLNTDRVGVGWIRQPPGKALEWLALIYWDDDKRYSPSLKSRLTITKDTSKNQVVLTMTNMDPVDTATYYCAHRGKHGYSYGPGYNWFDPWGQGTLVSVSS chain 2: QSVLTQPPSVSEAPRQRVTISCSGSSSNIGNNAVNWYQQVPGKAPKLLIYNDDLLPSGVSDRFSGSKSGTSASLAISGLQSEDEADYYCATWDDILNGPVFGGGTKLTVL | > 10 | > 10 | > 10 | > 10 | > 10 | > 10 | > 10
12 | BD55-1266 (protein) chain 1: QLQLLQSGAEVKKPGSSVKVSCKASGGTFGSHTISWVRQAPGQGLEWMGGIIPVSGKPNYAQKFQGRVTITADESTTTSYMELRSLRSEDTAMYFCSRLDTSGWYTGDTFDLWGQGTMVTVSS chain 2: DIQMTQSPASLSASVGDRVTITCRASQNIGIYLNWYQQKPGKAPKLLIYAAYSLQSGVPSRFSGSGSATEFTLTITSLQPDDFATYYCQQSYPAPPLTFGQGTRLEVK | 1.91 | 1.29 | 1.74 | 8.7 | > 10 | > 10 | 0.87
13 | BD55-6555 (protein) chain 1: QVQLQESGPGLVKPSETLSLTCTVSNGSISSYYWSWIRQPPGKGLEWIGYIYFSGHTNYNPSLKSRVTLSVDTSKNQFSLKLSSVTAADTAVYYCAREGAGKTNHDFWSGYSYYYYHGMDVWGQGTTVTVSS chain 2: QSVLTQPPSVSGAPGQRVTVSCTGSSSNIGAGYDVHWYQQLPGTAPKLLIYGNTNRPSGVPDRFSGSRSDTSASLAITGLQAEDEADYYCQSYDSSLSVRVFGGGTRLTVL | > 10 | > 10 | > 10 | > 10 | > 10 | > 10 | 1.16
